Like-named read-outs stand apart in the source and are kept apart here.

For assay [1], the target named is stabilized soluble LASV GPC trimer (Lassa virus).
For assay [2] the target is unchanged. This is another data set of the same source.

The Kd is a measure of binding affinity in units of concentration. Read a low Kd as higher affinity. What is called koff is a measure of how fast the partners let go of each other. The term kon denotes the rate constant with which the complex forms. Read a low kon as slow association. For the substance 10.4B, the Kd in assay [1] was determined as 66.3 nM. In assay [2], the Kd was determined as 66.3 nM, the off-rate (koff) was 0.00357 s⁻¹ and the kon worked out at 53800 M⁻¹ s⁻¹.

Values taken from patent US20240218055A1.
